# Share of PSTVd loop 15 variants by leaf site

The measurements come from Wu et al. 2024 (doi:10.1371/journal.ppat.1012142).

PSTVd intermediate strain, loop 15: wild type GGAAACCGCUACUAC, pool pattern GGAAACCGNNNNNNC; upper and lower strand joined, each 5' to 3', the first 7 letters being the upper strand, closing pairs included.

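A pool of all variants was put on leaves of three Nicotiana benthamiana plants. Progeny were sequenced from the inoculated region (day 5), the margin of the inoculated leaf (day 10) and systemic leaves (day 12).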

Numbers give reads per thousand; 0 = not seen among the reads, higher = more abundant. Each value is the mean of three plants. "Pool" is the share in the plasmid pool used as inoculum, on the same scale. The inoculated region was read from the minus strand, the other sites from the plus strand. IR is the inoculated region, LM the leaf margin, Sys the systemic leaves. Wild type was 33.9 per thousand in the pool and the most common sequence in every sample (inoculated region 202, 200, 159; leaf margin 724, 746, 710; systemic leaves 856, 883, 880). The authors trace changes outside the varied positions to PCR and sequencing errors or to mutation in the plant; presence does not show that a variant is infectious alone. Samples held 43,870 to 66,106 reads, so the smallest values rest on one or two reads.

* GGAAACCGCUGCCCC (pool 0.272) = IR 0.0867; LM 0.00668; Sys 0
* GGAAACCGGACACCC (pool 0.256) = IR 0.115; LM 0.00742; Sys 0.0107
* GGAAACCGAGUUCAC (pool 0.0960) = IR 0.0450; LM 0; Sys 0
* GGAAACCGAAUCUGC (pool 0.272) = IR 0.0877; LM 0.0108; Sys 0
* GGAAACCGUCCCAUC (pool 0.272) = IR 0.0915; LM 0.0187; Sys 0
* GGAAACCGCGAUAUC (pool 0.272) = IR 0.410; LM 0.142; Sys 0.0338
* GGAAACCGACGUCCC (pool 0.272) = IR 0.0589; LM 0.0208; Sys 0.00537
* GGAAACCGAUCGUAC (pool 0.240) = IR 0.389; LM 0.145; Sys 0.0458
* GGAAACCGUCGCACC (pool 0.208) = IR 0.144; LM 0.0121; Sys 0
* GGAAACCGCGUUGCC (pool 0.144) = IR 0.121; LM 0.00742; Sys 0
* GGAAACCGAAAACGC (pool 0.256) = IR 0.138; LM 0.0108; Sys 0
* GGAAACCGCCCUGGC (pool 0.144) = IR 0.108; LM 0.00539; Sys 0.00537
* GGAAACCGCGCCUGC (pool 0.224) = IR 0.0883; LM 0.0128; Sys 0
* GGAAACCGGUUAGGC (pool 0.336) = IR 0.0914; LM 0; Sys 0
* GGAAACCGAUUUUAC (pool 0.256) = IR 0.361; LM 0.111; Sys 0.105
* GGAAACCGUCGUCAC (pool 0.112) = IR 0.120; LM 0.0134; Sys 0
* GGAAACCGUGAUUAC (pool 0.208) = IR 0.516; LM 0.0703; Sys 0.0739
* GGAAACCGAUUUGAC (pool 0.176) = IR 0.0744; LM 0.0121; Sys 0
* GGAAACCGGGCCCGC (pool 0.304) = IR 0.105; LM 0.0128; Sys 0
* GGAAACCGGAUGUCC (pool 0.384) = IR 0.104; LM 0; Sys 0.0130

Extract of 2 entries:

| sequence | pool | IR | LM | Sys |
|---|---|---|---|---|
| GGAAACCGCGUUGCC | 0.144 | 0.121 | 0.00742 | 0 |
| GGAAACCGCCCUGGC | 0.144 | 0.108 | 0.00539 | 0.00537 |